Measured values from article PMC5381078, “Carboxylate derivatives of tributyltin (IV) complexes as anticancer and antileishmanial agents” (DARU Journal of Pharmaceutical Sciences, 2017).

tested on: promastigotes of Leishmania tropica kwh 23; test: Antileishmanial activity (MTT assay); format: cell-based; conditions: antileishmanial LC50
Method: Antileishmanial activity against the promastigotes of Leishmania tropica kwh 23 was evaluated by a quantitative colorimetric assay using 3-(4,5-dimethylthiazol-2-yl)-2, 5-diphenyl tetrazolium bromide (MTT) with minor modifications. […] […] Negative control wells contained 1% DMSO in PBS. All samples were run in triplicate. Afterwards, plates were incubated for 4 h at 24 °C with 20 μL of MTT (4 mg/mL in distilled water) to determine the cell viability. Supernatant from each well was carefully removed leaving behind formazan crystals. Colored formazan crystals were dissolved in 100 μL of DMSO by setting those aside for 1 h to ensure complete dissolution. Cell viability was estimated by measuring absorbance at 540 nm using microplate reader and percentage growth inhibition was calculated.

In order of falling “Fold higher potency than Ch-409” value:
1. CCC[CH2][Sn]([CH2]CCC)([CH2]CCC)[O]C(=O)/C=C\C(=O)Nc1ccc(C(=O)OCC)cc1 [Ch-431, ethyl (Z)-4-(4-oxo-4-((tributylstannyl)oxy)but-2-enamido)benzoate]  12.23 fold
2. CCC[CH2][Sn]([CH2]CCC)([CH2]CCC)[O]C(=O)/C=C\C(=O)NC1CCCCC1 [Ch-442, tributylstannyl (Z)-4-(cyclohexylamino)-4-oxobut-2-enoate]  10.84 fold

In order of falling “Fold lower potency compared with Ch-431” value:
1. CCC[CH2][Sn]([CH2]CCC)([CH2]CCC)[O]C(=O)CCC(=O)Nc1ccc(C(=O)[O][Sn]([CH2]CCC)([CH2]CCC)[CH2]CCC)cc1 [Ch-448, tributylstannyl 4-(4-oxo-4-((tributylstannyl)oxy)butanamido)benzoate]  7.38 fold
2. CCC[CH2][Sn]([CH2]CCC)([CH2]CCC)[O]C(=O)c1ccccc1C(=O)Nc1cccc2ccccc12 [Ch-450, tributylstannyl 2-(naphthalene-1-ylcarbamoyl)benzoate]  4.62 fold
3. CCC[CH2][Sn]([CH2]CCC)([CH2]CCC)[O]C(=O)/C=C\C(=O)Nc1cccc(C)c1C [Ch-459, tributylstannyl (Z)-4-((2,3-dimethylphenyl)amino)-4-oxobut-2-enoate]  4.14 fold
4. CCC[CH2][Sn]([CH2]CCC)([CH2]CCC)[O]C(=O)/C=C\C(=O)Nc1ccccc1 [Ch-458, tributylstannyl (Z)-4-oxo-4-(phenylamino)but-2-enoate]  3.28 fold
5. CCC[CH2][Sn]([CH2]CCC)([CH2]CCC)[O]C(=O)/C=C\C(=O)NC1CCCCC1 [Ch-442, tributylstannyl (Z)-4-(cyclohexylamino)-4-oxobut-2-enoate]  1.12 fold
